Measured values reported in PubChem BioAssay AID488890 (Southern Research Specialized Biocontainment Screening …, 2010).
Some of the results follow. Inconclusive results are not listed. The rule behind the calls is not given here.

assay: growth inhibition of non-replicating M. tuberculosis (AID 488890); conditions: Mycobacterium tuberculosis non-replicating, at 25 µM, stronger effect = higher value;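 note: plate controls were DMSO cells for no effect and high antibiotic wells for full effect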

Row | SMILES | inhibition
1 | CCNC(=S)/N=C(\N)N[N+](=O)[O-] | 12.8%
2 | Cc1ccc(NP(=O)(Oc2cccc(C)c2)Oc2cccc(C)c2)nc1 | -18.3%
3 | CCOC(=O)NC(Sc1ccccc1)C(Cl)(Cl)Cl (centres undefined) | 11.6%
4 | c1ccc(-c2nn[nH]n2)c(-c2nn[nH]n2)c1 | -4.09%
5 | CC(=O)NC(SC(=S)N(CC(C)C)CC(C)C)C(Cl)(Cl)Cl (centres undefined) | 64.1%
6 | Cc1ccc(OP(=O)(Nc2ccccn2)Oc2ccc(C)cc2)cc1 | 4.26%
7 | COC(=O)c1cc2c(s1)N=C(c1ccccc1)N(C)P2(=O)N1CCOCC1 (centres undefined) | 1.51%
8 | CCC(=O)N1C2C3N(C(=O)CC)C1C1N(C(=O)CC)C(C(N1C(=O)CC)N3C(=O)CC)N2C(=O)CC | -2.1%
9 | O=C(OC1CN2CCC1CC2)c1ccccc1 (centres undefined) | -4.02%
10 | CN(C)C(=O)Oc1noc2ccccc12 | 8.45%
11 | CC(NC(=O)COC(=O)C(O)(c1ccccc1)c1ccccc1)c1ccccc1 (centres undefined) | 10.7%
12 | Cc1ccccc1OP(=O)(Nc1ccccn1)Oc1ccccc1C | 24.1%
13 | CN(C)C1(CNC(=O)c2ccc(Cl)c(S(N)(=O)=O)c2)CCCCC1 | -2.84%
14 | O=P(Nc1ccccn1)(c1ccc(Br)cc1)c1ccc(Br)cc1 | 13.2%
15 | C[C@H]1OP(=O)(Oc2ccccc2)[C@H](O)[C@H](O)[C@H]1N=[N+]=[N-] (some centres undefined) | -0.01%
16 | O=P(Nc1nc2ccccc2s1)(c1ccccc1)c1ccccc1 | 37.7%
17 | CC(=O)NC(SC(=S)N(C)C)C(Cl)(Cl)Cl (centres undefined) | -4.45%
18 | O=[N+]([O-])c1ncn(CCn2cnc([N+](=O)[O-])n2)n1 | -8.95%
19 | O=[As](O)(c1ccccc1)c1ccc(O)cc1 | -9.63%
20 | C(Cc1nn[nH]n1)Cc1nn[nH]n1 | -6.26%

Row | SMILES | inhibition
21 | Nc1ccc([As](=O)(O)c2ccc([N+](=O)[O-])cc2)cc1 | 60.6%
22 | O=C(OC1CN2CCC1CC2)c1cccc(Cl)c1 (centres undefined) | 14.1%
23 | O=P(Nc1nccs1)(c1ccccc1)c1ccccc1 | 17.8%
24 | CC(C)C(=O)NC(Sc1ccccc1)C(Cl)(Cl)Cl (centres undefined) | -1.63%
25 | c1nnnn1CCn1cnnn1 | -22.2%
26 | COc1ccc(C2=NCC(CBr)S2)cc1 (centres undefined) | 27.4%
27 | CC(=O)N1C2C3N(C(C)=O)C1C1N(C(C)=O)C(C(N1C(C)=O)N3C(C)=O)N2C(C)=O | -4.28%
28 | O=[N+]([O-])c1cccc2n[nH]nc12 | 8.68%
29 | Cc1ccc(NP(=O)(Oc2ccccc2)Oc2ccccc2)nc1 | 14.6%
30 | Nc1ccc([As](=O)(O)c2ccc(N)cc2)cc1 | 50%
31 | CCN(/C(=N/P(=O)(N1CCOCC1)N1CCOCC1)N1CCOCC1)c1ccc(OC)cc1 | 11.5%
32 | CN(C)C(=O)OCCc1n(C)cc[n+]1C | -8.96%
33 | CC(C)=N/N=C(\N)N[N+](=O)[O-] | -11.5%
34 | CC1CCN(C(=O)Oc2c(Cl)cc(Cl)c3cccnc23)CC1 | 51.7%
35 | O=C(Nc1cc([As](=O)(O)O)ccc1O)c1ccccc1 | 3.7%
36 | CC(C)(C)C(=O)NC(Sc1ccncn1)C(Cl)(Cl)Cl (centres undefined) | 36.7%
37 | O=[N+]([O-])c1ncn(CCn2ncnc2[N+](=O)[O-])n1 | -2%
38 | O=[N+]([O-])c1cccc(NC2=NCC(CBr)S2)c1 (centres undefined) | -5.07%
39 | O=C(O)CNc1ccc([As](=O)(O)O)cc1 | -15.8%
40 | CC(=O)Nc1ccc([As](=O)(O)O)cc1 | 4.21%

Row | SMILES | inhibition
41 | O=C(O)c1ccccc1[As](=O)(O)O | -4.4%
42 | CN(C(=O)Cc1ccc(Cl)c(Cl)c1)[C@H]1CCCC[C@@H]1N1CCCC1 | -1.6%
43 | Cc1ccc(NP(=O)(Oc2ccccc2F)Oc2ccccc2F)nc1 | -0.36%
44 | Cc1cc(SC(NC(=O)c2ccc(F)cc2)C(Cl)(Cl)Cl)ncn1 (centres undefined) | 46.2%
45 | CCOP(=O)(Nc1ccccc1)OCC | 2.69%
46 | O=[N+]([O-])c1cc([N+](=O)[O-])c(CCN2CCOCC2)c([N+](=O)[O-])c1 | 76.3%
47 | CCN(N=Nc1nonc1N)c1nonc1N | -25.3%
48 | NC(=O)c1cc([N+](=O)[O-])cc([N+](=O)[O-])c1N | -9.96%
49 | Cc1ccc(N/C(=N/P(=O)(N2CCOCC2)N2CCOCC2)N2CCOCC2)cc1 | -11%
50 | CN(C(=O)Cc1ccc(Cl)c(Cl)c1)[C@H]1CCCC[C@H]1N1CCCC1 | 42%
51 | Cc1ccc(OP(=O)(Nc2nccs2)Oc2ccc(C)cc2)cc1 | 16.9%
52 | COc1ccccc1OP(=O)(Nc1ccc(C)cn1)Oc1ccccc1OC | -9.09%
53 | CN1CCCC(OC(=O)C(c2ccccc2)c2ccccc2)C1 (centres undefined) | -7.21%
54 | Clc1ccc(Cl)c(NC2=NCC(CBr)S2)c1 (centres undefined) | 11.7%
55 | Nc1cc(N)c2nonc2c1[N+](=O)[O-] | -3.33%
56 | CC(C)CC(=O)NC(Sc1ccc(Cl)cc1)C(Cl)(Cl)Cl (centres undefined) | 28.7%
57 | O=C(NC(Sc1ccncn1)C(Cl)(Cl)Cl)c1ccccc1 (centres undefined) | 32.4%
58 | Cc1c2non([O-])c-2c(C)[n+](=O)[n+]1[O-] | 28%
59 | Oc1ccccc1CNc1ccccn1 | -0.12%
